# Taken from: PubChem BioAssay AID1259414 (Drosophila RNAi Screening Center, 2018)
# Aim: 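Host factors increasing or decreasing Wolbachia levels in cultured fly cells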 (primary screen)
# Cell system: Drosophila JW18 cells infected with Wolbachia
# Reagents: long dsRNA against Drosophila genes, 0.25 µg dsRNA per well of a 384-well plate
# Time to read-out: 5 days
# Challenge: cells persistently infected with Wolbachia before knock-down; no added drug
# Measured: 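Imaged fluorescence in situ signal for Wolbachia 23S rRNA per DAPI-counted host cell, given as a robust z-score within each plate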
# Reading the numbers: Wolbachia per cell robust z: higher = more Wolbachia per host cell than the plate typical
# Rule for the call: 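Hit when robust z is 1.5 or more, or -1.5 or less, in at least two of three replicates; excludes dsRNAs with several or no targets, genes not expressed in JW18 and well A1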
# The screen tested about 24,000 reagents; this is a random part of those that have a named target and a result. Of all reagents, about 1,210 (5%) were called active. 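Inactive calls also include excluded dsRNAs with several or no targets, genes unexpressed in JW18, and well A1, regardless of score.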 Names joined by + are all predicted targets of the reagent.
target,PubChem SID,"Wolbachia per cell robust z, rep 1","Wolbachia per cell robust z, rep 2","Wolbachia per cell robust z, rep 3",activity call
CG10702,SID104181889,0.961,0.738,0.546,inactive
CG30458,SID104207179,0.891,1.93,1.27,inactive
Atet,SID104180055,-3.9,1.06,1.08,inactive
kn,SID104185988,-0.301,-0.727,0.355,inactive
kn,SID104187429,0.199,-0.256,0.0236,inactive
kn,SID104201251,-0.501,-1.34,-0.959,inactive
kn,SID104202903,-0.459,0.346,0.0262,inactive
CG30278,SID104202146,-0.652,-0.914,-1.11,inactive
Polr2J,SID104182787,-9.73,0.0781,0.565,inactive
Polr2J,SID104205655,-3.99,1.47,1.96,inactive
CG10211,SID104181819,0.83,0.609,1.12,inactive
CG10211,SID104207219,-0.322,0.241,-0.835,inactive
Sbf,SID104196644,-0.514,-3.45,-0.818,inactive
Sbf,SID104205962,0.682,-0.697,0.0532,inactive
CG8539,SID104190780,-0.868,-0.419,-0.662,inactive
CG8539,SID104201456,-0.448,-0.571,-0.859,inactive
CG8539,SID104206736,-0.173,0.135,-0.971,inactive
jef,SID104185990,-0.00177,0.207,-3.43,inactive
jef,SID104203414,-5.51,-0.932,-1.33,inactive
Pal1,SID104185898,-0.418,-3.53,-0.00728,inactive
CR33318,SID104202306,-0.446,0.236,-0.483,inactive
CG15914,SID104199531,1.64,-0.536,-3.45,inactive
CG17562,SID104195035,-0.524,-0.597,1.45,inactive
Acsx1R + Acsx1L,SID104203083,0.318,-3.33,-0.599,inactive
Svil,SID104187979,-0.107,-1.17,1.37,inactive
Svil,SID104188088,-6.65,-0.0309,-0.779,inactive
Svil,SID104188124,-3.1,0.519,-0.0108,inactive
Svil,SID104188126,-0.0605,-0.275,0.968,inactive
Svil,SID104188286,-1.47,-0.448,-2.75,inactive
Svil,SID104188287,-1.3,0.319,0.272,inactive
Svil,SID104203193,0.761,1.83,2.9,active
Svil,SID104204348,0.333,0.914,0.443,inactive
Svil,SID104207450,0.559,1.83,0.996,inactive
Ir75b,SID104189981,0.137,-0.0244,0.338,inactive
Ir75b,SID104218981,-0.068,0.396,-1.32,inactive
DIP2,SID104188374,-1.13,-0.599,1.01,inactive
Mst85C,SID104196538,1.42,0.772,2.12,inactive
Mst85C,SID104204989,-0.178,0.257,0.76,inactive

Continued (2 carried over from the part before).
target,PubChem SID,"Wolbachia per cell robust z, rep 1","Wolbachia per cell robust z, rep 2","Wolbachia per cell robust z, rep 3",activity call
Mst85C,SID104196538,1.42,0.772,2.12,inactive
Mst85C,SID104204989,-0.178,0.257,0.76,inactive
CG7900,SID104196128,0.223,0.598,-0.795,inactive
CG7900,SID104201122,-1.26,-1.81,-1.61,active
Osi17,SID104192076,-5.69,1.49,1.13,inactive
Mtap,SID104186682,0.499,0.0198,0.896,inactive
CG18294,SID104189683,-2.37,-0.815,0.924,inactive
Adk3,SID104185709,-0.362,-1.17,0.375,inactive
Adk3,SID104206550,0.49,-0.711,0.288,inactive
Ski6,SID104182283,-5,-0.0109,-0.791,inactive
lmd,SID104195410,-1.77,-0.696,-1.13,inactive
lmd,SID104207738,0.377,-0.0787,-0.361,inactive
CG11113,SID104185831,1.05,-5.15,1.4,inactive
hiro,SID104188356,0.705,0.481,0.657,inactive
hiro,SID104208324,-0.668,-0.549,-0.394,inactive
yellow-e,SID104192758,-2.87,-2.51,-7.44,inactive
yellow-e,SID104196355,-4.51,-1.4,-0.705,inactive
Gr47a,SID104186013,-7.91,-0.0785,-2.54,inactive
Sb,SID104196643,0.81,1.37,0.595,inactive
Sb,SID104207794,-4.95,-0.0203,0.635,inactive
CG13590,SID104184018,-2.82,0.0266,0.552,inactive
CG13590,SID104208334,0.14,0.235,-0.116,inactive
CG8349,SID104182875,0.329,-0.259,0.786,inactive
CG31517,SID104192802,-0.271,0.102,1.08,inactive
m,SID104199973,-0.312,0.675,0.596,inactive
m,SID104208180,0.0269,-1.78,-1.42,inactive
mxc,SID104197611,0.448,-0.356,0.712,inactive
CG32568,SID104199705,0.11,1.04,-0.631,inactive
CG14491,SID104186254,-0.153,0.561,-1.63,inactive
CG14491,SID104207992,0.443,0.827,0.584,inactive
eIF4A,SID104183318,4.22,3.22,0.787,active
eIF4A,SID104204587,4.95,3.33,4.34,active
